Pooled drug test results. Numbers come from NIAID ChemDB, via PubChem.

All rows: tests in culture; agent: HIV-1

Fold resistance has wild type as its base.

| SMILES | read-out | changes | cell line | method | strain or isolate | result |
|---|---|---|---|---|---|---|
| Cc1cc2[nH]cnc2cc1NC(=O)COc1ccc(Cl)cc1C(=O)c1cc(F)cc(C(F)(F)F)c1 | fold resistance | RT-G190A | HeLa + HELA CD4+ | β-galactosidase | HXB2 | ~1 |
| CC(C)C1=C2[C@H]3CC[C@@H]4[C@@]5(C)CC[C@H](OC(=O)[C@H]6C[C@@H](C(=O)O)C6(C)C)C(C)(C)[C@@H]5CC[C@@]4(C)[C@]3(C)CC[C@@]2(CCNCC2(NC(=O)c3ccc(Cl)cc3)CC2)CC1=O | EC50 |  | MT-2 | p24 / ELISA | 92HT599 | <1 µM |
| Cc1cc(S(N)(=O)=O)ccc1NC(=O)COc1ccc(Cl)cc1C(=O)c1cc(F)cc(C#N)c1 | EC50 | RT-K103N P225H | HeLa + HELA CD4+ | β-galactosidase | HXB2 | <0.01 µM |
| CC(C)C1=C2[C@H]3CC[C@@H]4[C@@]5(C)CC[C@H](OC(=O)[C@H]6C[C@@H](C(=O)O)C6(C)C)C(C)(C)[C@@H]5CC[C@@]4(C)[C@]3(C)CC[C@@]2(CC(=O)NCc2ccc(Cl)cc2)CC1=O | EC50 |  | MT-2 | p24 / ELISA | 92HT599 | <1 µM |
| Cc1cc(S(N)(=O)=O)ccc1NC(=O)COc1ccc(Cl)cc1C(=O)c1cc(F)cc(F)c1 | fold resistance | RT-V108I Y181C | HeLa + HELA CD4+ | β-galactosidase | HXB2 | ~1 |
| COc1ccc(S(=O)(=O)N(CC(C)C)C[C@@H](O)CC(=O)N2CCN(Cc3cccnc3)C[C@H]2C(=O)NC(C)(C)C)cc1 | EC90 |  | CEM | p24 | IIIB | 1 µM |
| O=C1Nc2ccc(F)c(F)c2[C@@](C#CC2CC2)(C(F)(F)F)N1 | EC90 | RT-K101E |  |  |  | <0.012 µM |
| CC(C)C1=C2[C@H]3CC[C@@H]4[C@@]5(C)CC[C@H](OC(=O)[C@H]6C[C@@H](C(=O)O)C6(C)C)C(C)(C)[C@@H]5CC[C@@]4(C)[C@]3(C)CC[C@@]2(CC(=O)NCC(C)(C)NC(=O)c2nccs2)CC1=O | EC50 |  | MT-2 | p24 / ELISA | 92HT599 | <1 µM |
| COc1ccc(S(=O)(=O)N(CC(O)CN(Cc2ccccc2)C(=O)OC2COCOC2)CC2CCCC2)cc1 | EC90 |  | CEM | p24 | IIIB | 1 µM |
| Cc1cc(C#N)cc(C(=O)c2cc(Cl)ccc2OCC(=O)Nc2ccc(S(N)(=O)=O)nc2C)c1 | fold resistance | RT-V108I Y181C | HeLa + HELA CD4+ | β-galactosidase | HXB2 | ~1 |
| O=C(O)c1cc(-n2cccc2)ccc1Cl | EC90 |  | PBMC + MT-2 | p24 | 93TH051 X4R5 CLADE E | 91.04 µM |
| Cc1cc(C)cc(C(=O)c2cc(Cl)ccc2OCC(=O)Nc2ccc(S(N)(=O)=O)cc2C)c1 | fold resistance | RT-L100I | HeLa + HELA CD4+ | β-galactosidase | HXB2 | ~1 |
| CC(C)C1=C2[C@H]3CC[C@@H]4[C@@]5(C)CC[C@H](OC(=O)[C@H]6C[C@@H](C(=O)O)C6(C)C)C(C)(C)[C@@H]5CC[C@@]4(C)[C@]3(C)CC[C@@]2([C@@H](O)CNCc2ccc(N3CCC(O)CC3)cc2)CC1=O | EC50 |  | MT-2 | p24 / ELISA | 92HT599 | <1 µM |
| COc1ccc(S(=O)(=O)N(CC(C)C)C[C@@H](O)CC(=O)N2CSCC2C(=O)NC(C)(C)C)cc1 | EC90 |  | CEM | p24 | IIIB | 1 µM |
| CC(C)C1=C2[C@H]3CC[C@@H]4[C@@]5(C)CC[C@H](OC(=O)[C@H]6C[C@@H](C(=O)O)C6(C)C)C(C)(C)[C@@H]5CC[C@@]4(C)[C@]3(C)CC[C@@]2(CCNCc2ccc(Cl)cc2OCCN2CCCC2)CC1=O | EC50 |  | MT-2 | p24 / ELISA | 92HT599 | <1 µM |
| Nc1ccc(S(=O)(=O)N(CC[C@H](O)CN(CC2CCCC2)S(=O)(=O)c2ccc(N)cc2)CC2CCCC2)cc1 | EC90 |  | CEM | p24 | IIIB | 1 µM |
| O=C1Nc2ccc(Cl)cc2[C@@](/C=C/C2CC2)(C(F)(F)F)N1 | EC90 | RT-K103N Y181C |  |  |  | ~0.12 µM |
| CC(C)C1=C2[C@H]3CC[C@@H]4[C@@]5(C)CC[C@H](OC(=O)[C@H]6C[C@@H](C(=O)O)C6(C)C)C(C)(C)[C@@H]5CC[C@@]4(C)[C@]3(C)CC[C@@]2([C@@H](O)CNCC(C)(C)NC(=O)c2ccc(N3CCN(C)CC3)cc2)CC1=O | EC50 |  | MT-2 | p24 / ELISA | 92HT599 | <1 µM |
| Cc1cc(C#N)cc(C(=O)c2cc(Cl)ccc2OCC(=O)Nc2cnc(S(N)(=O)=O)cc2C)c1 | fold resistance | RT-Y181C | MT-4 | cytopathic effect / propidium iodide | Nevirapine-resistant (RT Y181C) | ~1 |
| CC(C)C1=C2[C@H]3CC[C@@H]4[C@@]5(C)CC[C@H](OC(=O)[C@H]6C[C@@H](C(=O)O)C6(C)C)C(C)(C)[C@@H]5CC[C@@]4(C)[C@]3(C)CC[C@@]2([C@@H](O)CNCC(C)(C)NC(=O)c2ccc(Cl)cc2OCCN(C)C)CC1=O | EC50 |  | MT-2 | p24 / ELISA | 92HT599 | <1 µM |
| O=C(COc1ccc(Cl)cc1C(=O)c1ccco1)Nc1ccc2cn[nH]c2c1 | fold resistance | RT-K103N | HeLa + HELA CD4+ | β-galactosidase | HXB2 | ~1 |

Rows are shuffled and stem from different studies. Blank or dashed fields: not listed here. ECn is the concentration giving n% inhibition of infection, replication or growth.